Reference: patent publication US12577587B2 (priority 2009, dated 2026)

Legend:
EF2 [1] = target: T1, EF2 (Homo sapiens, UniProt P13639); type: cell-based
EF2 [2] = target: T1, EF2; type: biochemical

Diphtheria toxin was tested, and the “EF-2 mobility shift (ADP-ribosylation)” value (EF2 [1]) was “mobility shift of EF-2” and the EF2 ribosylation (EF2 [2]) was “impaired”.
